Results of unrelated studies side by side (data: NIAID ChemDB).

Common to all: growth or infection tests; agent: Candida albicans

ECn: concentration that inhibits the pathogen or its effect by n%. MIC50, MIC90 and the like: level of inhibition, or share of isolates inhibited. Zones are inhibition diameters on agar. Neighbouring rows are from separate reports. Inhibition is in % at the dose shown (toxicity tests: loss of growth or viability).

CCO[C@@H]1C[C@@H]([C@H](C)[C@H]2CC[C@]3(C)C4=C(CC[C@@]23C)[C@]2(C)CC[C@H](O)C(C)(C)[C@H]2CC4)CC[C@@H]1C ; strain: MTCC 183 ; method: agar diffusion / agar ; endpoint: zone ; dose: 1 µg/disc ; value: 16 mm
C[C@]1(N)CCC[C@H]1C(=O)O ; endpoint: EC50 ; value: 64 µg/mL
CC(C)C[C@@H]1CN2C(=NC[C@H]2C2CCCCC2)N1CCC12CC3CC(CC(C3)C1)C2 ; strain: ATCC 10231 ; endpoint: EC50 ; value: 48.6 µg/mL
C=C1C2CCC(C2)C1(C)C ; strain: ATCC 90028 ; method: broth dilution ; endpoint: MIC99.9 ; value: 4000 µg/mL
C[C@@H]([C@H]1CC[C@H](C)C(=O)C1)[C@H]1CC[C@]2(C)C3=C(CC[C@@]12C)[C@]1(C)CC[C@H](O)C(C)(C)[C@H]1CC3 ; strain: MTCC 183 ; method: agar diffusion / agar ; endpoint: zone ; dose: 3 µg/disc ; value: 20 mm
C1CCC(C[C@H]2CN3C(=NC[C@H]3CC3CCCCC3)N2CCC23CC4CC(CC(C4)C2)C3)CC1 ; strain: ATCC 10231 ; endpoint: EC50 ; value: 2.9 µg/mL
CCC(C)CC(C)CCCCCCCCC(=O)N[C@H]1C[C@@H](O)[C@H](NCCN)NC(=O)[C@@H]2[C@@H](O)CCN2C(=O)[C@H]([C@H](O)CCN)NC(=O)[C@H]([C@H](O)[C@@H](O)c2ccc(O)cc2)NC(=O)[C@@H]2C[C@@H](O)CN2C(=O)[C@H]([C@@H](C)O)NC1=O ; endpoint: Geometric mean MFC ; value: 1.31 µg/mL
CC(C)[C@H](NC(=O)[C@H](Cc1ccccc1)NC(=O)[C@H](CCCCN)NC(=O)CNC(=O)[C@@H](N)Cc1c[nH]c2ccccc12)C(N)=O ; method: colony count ; endpoint: inhibition ; dose: 100 µM ; value: 5.7%
C=C(C)C1CC=C(C)C(=O)C1 ; strain: ATCC 90028 ; method: broth dilution ; endpoint: MIC99.9 ; value: >8000 µg/mL
CC1(C)C=C2C3CCC4[C@@]5(C)CCC(=O)C(C)(C)C5CC[C@@]4(C)[C@]3(C)CC[C@@]2(C(=O)O)CC1 ; strain: ATCC 10231 ; method: broth dilution ; endpoint: MLC ; value: >200 µg/mL
N[C@H]1CSC[C@H]1C(=O)O ; endpoint: EC50 ; value: 32 µg/mL
C[C@H](Cc1ccc(O)c(O)c1)[C@@H](C)Cc1ccc(O)c(O)c1 ; strain: CCC 129-2000 ; method: broth dilution ; endpoint: MIC80 ; value: 250 µg/mL
COc1ccccc1O ; strain: ATCC 90028 ; method: broth dilution ; endpoint: MIC99.9 ; value: 2000 µg/mL
CCC(C)n1ncn(-c2ccc(N3CCN(c4ccc(OC[C@H]5CO[C@](Cn6cncn6)(c6ccc(Cl)cc6Cl)O5)cc4)CC3)cc2)c1=O ; strain: 85 strains (fluconazole-resistant) ; endpoint: MIC50 ; value: 1 µg/mL
C=CC1C[C@H](N)[C@H](C(=O)O)C1 ; endpoint: EC50 ; value: 128 µg/mL
CC1=CC[C@@H]2C[C@H]1C2(C)C ; strain: ATCC 90028 ; method: broth dilution ; endpoint: MIC50 ; value: 8000 µg/mL
COc1ccc(/C=C/c2cc(OC)cc(OC)c2)cc1 ; strain: SC5314 ; method: broth dilution ; endpoint: MIC95 ; value: >300 µg/mL
S=C(NCCc1ccc2c(c1)OCO2)Nc1ccccc1 ; strain: Clinical isolate ; changes: Fluconazole-resistant ; method: broth dilution ; endpoint: MIC80 ; value: >64 µg/mL
CN(C)C1=NC(=O)/C(=C/c2ccccc2)S1 ; strain: ATCC 10231 ; method: broth dilution ; endpoint: MIC100 ; value: 250 µg/mL
N[C@H]1CCCC[C@H]1C(=O)O ; endpoint: EC50 ; value: 128 µg/mL
CC(C)(C)c1ccc(C(=O)NCCc2ccc3c(c2)OCO3)cc1 ; strain: Clinical isolate ; changes: Fluconazole-resistant ; method: broth dilution ; endpoint: MIC80 ; value: >64 µg/mL
COc1ccc(/C=C/c2cc(O)cc(OC)c2)cc1 ; strain: SC5314 ; method: broth dilution ; endpoint: MIC95 ; value: 32 µg/mL
CC(C)[C@H](NC(=O)[C@H](Cc1ccccc1)NC(=O)[C@@H](N)CCCCN)C(N)=O ; method: colony count ; endpoint: inhibition ; dose: 100 µM ; value: 2.7%
CN(C/C=C/C#CC(C)(C)C)Cc1cccc2ccccc12 ; endpoint: MIC95 ; value: 50 µg/mL
CC(=O)N1CCN(c2ccc(OC[C@H]3CO[C@](Cn4ccnc4)(c4ccc(Cl)cc4Cl)O3)cc2)CC1 ; strain: ATCC 10231 ; method: broth dilution ; endpoint: MIC100 ; value: 0.5 µg/mL
O=C(NCCc1ccc2c(c1)OCO2)Nc1ccc(Cl)cc1 ; strain: Clinical isolate ; changes: Fluconazole-resistant ; method: broth dilution ; endpoint: MIC80 ; value: >64 µg/mL
NC1C[C@H](N)[C@H](C(=O)O)C1 ; endpoint: EC50 ; value: 64 µg/mL
Oc1ccc([C@H]2c3c(O)cc(O)cc3C3c4c(cc(O)cc4C2O)O[C@@H]3c2ccc(O)cc2)cc1 ; strain: SC5314 ; method: broth dilution ; endpoint: MIC95 ; value: >300 µg/mL
C[C@@H](c1ncncc1F)[C@](O)(Cn1cncn1)c1ccc(F)cc1F ; strain: 85 strains (fluconazole-resistant) ; endpoint: MIC50 ; value: 1 µg/mL
CC(C)(C)C1CCC(CN2C3=NC[C@H](C4CCCCC4)N3C[C@H]2CC2CCCCC2)CC1 ; strain: ATCC 10231 ; endpoint: EC50 ; value: 4.6 µg/mL
CN(C)C1=NC(=O)/C(=C/c2ccc(Cl)cc2)S1 ; strain: ATCC 10231 ; method: broth dilution ; endpoint: MIC100 ; value: 62.5 µg/mL
COc1cccc(C[N+]2=C(C)c3cc4c(cc3CC2)OCO4)c1OC.[Br-] ; strain: Clinical isolate ; changes: Fluconazole-resistant ; method: broth dilution ; endpoint: MIC80 ; value: >64 µg/mL
CC(C)(C)C1CCC(CN2C3=NC[C@H](C4CCCCC4)N3C[C@@H]2C2CCCCC2)CC1 ; strain: ATCC 10231 ; endpoint: EC50 ; value: 24.1 µg/mL
C[N+]1(Cc2ccc(Br)cc2)CCc2cc3c(cc2C1c1ccccc1)OCO3.[Br-] ; strain: Clinical isolate ; changes: Fluconazole-resistant ; method: broth dilution ; endpoint: MIC80 ; value: >64 µg/mL
C=C1C[C@@H](N)[C@@H](C(=O)O)C1 ; endpoint: EC50 ; value: 128 µg/mL
C=C1CC[C@H]2C[C@@H]1C2(C)C ; strain: ATCC 90028 ; method: broth dilution ; endpoint: MIC50 ; value: 1000 µg/mL
COc1cc(/C=C/c2ccc(O)cc2)cc(OC)c1 ; strain: SC5314 ; method: broth dilution ; endpoint: MIC95 ; value: 29 µg/mL
COC(=O)c1cc(O)c(O)c(O)c1 ; strain: ATCC 10231 ; method: broth dilution ; endpoint: MLC ; value: >200 µg/mL
CC12CCC(CC1)C(C)(C)O2 ; strain: ATCC 90028 ; method: broth dilution ; endpoint: MIC99.9 ; value: >8000 µg/mL
C[C@@H]1C[C@@H]([C@H](O)CC2CC(=O)NC(=O)C2)C(=O)[C@@H](C)C1 ; strain: Isolate 5 ; endpoint: MIC ; value: 0.53 µM
Cn1c(=O)c2c(ncn2C)n(C)c1=O ; strain: ATCC 90028 ; method: broth dilution ; endpoint: MIC50 ; value: 4000 µg/mL
C=C(Cl)/C=C/[C@H](O)CC(=C)C[C@H]1OC2[C@@H](O)[C@]3(O)C[C@@H](O)[C@H](C)[C@H](CCC/C=C\[C@@H]4C[C@@H](O)C[C@]5(C[C@H](OC)CC(CC(=O)[C@@H](C)[C@H](OC(C)=O)[C@@H](C)C(=C)C[C@@H]6C[C@@](C)(O)C[C@]7(C[C@H](OC(C)=O)CC(CC(=O)O[C@@H]([C@@H]1O)[C@H]2C)O7)O6)O5)O4)O3 ; strain: ATCC 32354 ; endpoint: MFC ; value: 3.12 µg/mL
C1CCC(C[C@@H]2CN=C3N2C[C@@H](C2CCCCC2)N3CCC23CC4CC(CC(C4)C2)C3)CC1 ; strain: ATCC 10231 ; endpoint: EC50 ; value: 9.1 µg/mL
CCC(C)CC(C)CCCCCCCCC(=O)NC1C[C@@H](O)[C@@H](O)NC(=O)[C@@H]2[C@@H](O)CCN2C(=O)[C@H]([C@@H](O)CC(N)=O)NC(=O)[C@H]([C@H](O)[C@@H](O)c2ccc(OP(=O)([O-])O)cc2)NC(=O)[C@@H]2C[C@@H](O)CN2C(=O)[C@H]([C@H](C)O)NC1=O.[Na+] ; strain: MY1028 ; endpoint: MFC ; value: 4 µg/mL
O=c1c(O)c(-c2ccc(O)c(O)c2)oc2cc(O)cc(O)c12 ; strain: ATCC 10231 ; method: broth dilution ; endpoint: MLC ; value: 200 µg/mL
CC(C)(C)C1CCC(CN2C3=NC[C@H](CC4CCCCC4)N3C[C@H]2C2CCCCC2)CC1 ; strain: ATCC 10231 ; endpoint: EC50 ; value: 9.2 µg/mL

A second listing of 6 rows from above:

{"SMILES": "O=c1c(O)c(-c2ccc(O)c(O)c2)oc2cc(O)cc(O)c12", "strain": "ATCC 10231", "method": "broth dilution", "endpoint": "MLC", "value": "200 µg/mL"}
{"SMILES": "CCC(C)n1ncn(-c2ccc(N3CCN(c4ccc(OC[C@H]5CO[C@](Cn6cncn6)(c6ccc(Cl)cc6Cl)O5)cc4)CC3)cc2)c1=O", "strain": "85 strains (fluconazole-resistant)", "endpoint": "MIC50", "value": "1 µg/mL"}
{"SMILES": "CN(C)C1=NC(=O)/C(=C/c2ccccc2)S1", "strain": "ATCC 10231", "method": "broth dilution", "endpoint": "MIC100", "value": "250 µg/mL"}
{"SMILES": "C[C@@H]1C[C@@H]([C@H](O)CC2CC(=O)NC(=O)C2)C(=O)[C@@H](C)C1", "strain": "Isolate 5", "endpoint": "MIC", "value": "0.53 µM"}
{"SMILES": "CCO[C@@H]1C[C@@H]([C@H](C)[C@H]2CC[C@]3(C)C4=C(CC[C@@]23C)[C@]2(C)CC[C@H](O)C(C)(C)[C@H]2CC4)CC[C@@H]1C", "strain": "MTCC 183", "method": "agar diffusion / agar", "endpoint": "zone", "dose": "1 µg/disc", "value": "16 mm"}
{"SMILES": "CC(C)(C)C1CCC(CN2C3=NC[C@H](CC4CCCCC4)N3C[C@H]2C2CCCCC2)CC1", "strain": "ATCC 10231", "endpoint": "EC50", "value": "9.2 µg/mL"}